Pooled drug test results. Numbers come from NIAID ChemDB, via PubChem.

Shared fields: tests in culture; species: HIV-1

ECn: concentration that inhibits the pathogen or its effect by n%. Rows are shuffled and stem from different studies. Blank or dashed fields: not listed here.

SMILES	read-out	cell line	mutations	strain	method	result
C[C@H]1CO[C@@H]2CN3C=C(C(=O)NCc4cn5ncsc5n4)C(=O)C(=O)C3C(=O)N12	EC50	CEM-SS	-	IIIB	XTT	0.0441 µM
COc1ccc(OCc2nc3ccccc3n3cccc23)cc1	EC50	MT-4	-	-	cytopathic effect / MTT	>16 µM
C[C@H]1CO[C@@H]2CN3C=C(C(=O)NCc4cnc5ncccn45)C(=O)C(=O)C3C(=O)N12	EC50	CEM-SS	-	IIIB	XTT	0.0203 µM
O=C1Nc2ccc(Cl)cc2C(OCC=C(Cl)Cl)(C(F)(F)F)O1	EC50	-	RT-K103N	-	-	<0.242 µM
O=C(OCc1ccccc1)N1OCCC1n1cc(COCc2ccccc2)c(=O)[nH]c1=O	EC50	CEM-GFP	-	NL4-3	fluorescence	15.7 µM
COC(=O)[C@@H](NC(=O)[C@@H](NC(=O)[C@@H](C)NC[C@H](O)[C@H](Cc1ccccc1)NC(=O)[C@H](C)NC(=O)OCc1ccccc1)C(C)C)C(C)C	EC50	MOLT-4	-	IIIB	virus yield	0.1 µM
C/C(=N/O)c1ccc(Nc2nc(-c3ccncc3)nc3ccccc23)cc1	EC50	MT-4	-	NL4-3	ELISA	<5 µM
CC(C)C1=C2[C@H]3CC[C@@H]4[C@@]5(C)CC[C@H](OC(=O)[C@H]6C[C@@H](C(=O)O)C6(C)C)C(C)(C)[C@@H]5CC[C@@]4(C)[C@]3(C)CC[C@@]2(CCNC(=O)c2ccc(C(F)(F)F)cc2)CC1=O	EC50	MT-2	-	92HT599	p24 / ELISA	<1 µM
C[C@H]1CO[C@@H]2CN3C=C(C(=O)NCc4c(F)cc(F)nc4F)C(=O)C(=O)C3C(=O)N12	EC50	CEM-SS	-	IIIB	XTT	0.0174 µM
NC(=O)c1c(F)cccc1Nc1nc(-c2ccccn2)nc2ccccc12	EC50	MT-4	-	NL4-3	ELISA	<5 µM
CC(C)C1=C2[C@H]3CC[C@@H]4[C@@]5(C)CC[C@H](OC(=O)[C@H]6C[C@@H](C(=O)O)C6(C)C)C(C)(C)[C@@H]5CC[C@@]4(C)[C@]3(C)CC[C@@]2(CC(=O)NCc2ccc(N3CCS(=O)(=O)CC3)cc2)CC1=O	EC50	MT-2	-	92HT599	p24 / ELISA	<1 µM
COc1cc(Nc2nc3cc(C(F)(F)F)ccc3n3cccc23)cc(OC)c1OC	EC50	MT-4	-	-	cytopathic effect / MTT	>57 µM
CC(C)CCC[C@@H](C)[C@H]1CCC2C3CCC4C[C@@H](O[C@H]5O[C@H](COS(=O)(=O)[O-])[C@@H](OS(=O)(=O)[O-])[C@H](OS(=O)(=O)[O-])[C@@H]5O[C@H]5O[C@H](COS(=O)(=O)[O-])[C@@H](OS(=O)(=O)[O-])[C@H](O[C@H]6O[C@H](COS(=O)(=O)[O-])[C@@H](OS(=O)(=O)[O-])[C@H](O[C@H]7O[C@H](COS(=O)(=O)[O-])[C@@H](OS(=O)(=O)[O-])[C@H](OS(=O)(=O)[O-])[C@@H]7OS(=O)(=O)[O-])C6OS(=O)(=O)[O-])[C@@H]5OS(=O)(=O)[O-])CC[C@]4(C)C3CC[C@@]21C	EC50	H9	-	IIIB	p24 / ELISA / antigen	7 µg/mL
O=[N+]([O-])c1cccc(-c2ccc3ccccc3n2)c1	EC50	MT-2	-	NL4-3	MTT	63.67 µM
COc1ccc(Nc2nc3cc(C(F)(F)F)ccc3n3cccc23)cc1	EC50	MT-4	-	-	cytopathic effect / MTT	>100 µM
C[C@H]1CO[C@@H]2CN3C=C(C(=O)NCc4nc5cc(Cl)ccc5n4C)C(=O)C(=O)C3C(=O)N12	EC50	CEM-SS	-	IIIB	XTT	0.0387 µM
Nc1cccc([C@@H]2C[C@H](N3CCCC3=O)c3cc(I)ccc3N2)c1	EC50	MT-2	-	NL4-3	MTT	>50 µM
Cc1nc2cc(CNC(=O)C3=CN4C[C@H]5OC[C@H](C)N5C(=O)C4C(=O)C3=O)ccc2n1C	EC50	CEM-SS	-	IIIB	XTT	0.0389 µM
Cc1ccnc2c1NC(=O)c1cccnc1N2C1CC1	EC50	CEM-GFP	-	NL4-3	fluorescence	0.14 µM
COc1ccc(Nc2nc3cc(C(F)(F)F)ccc3n3cccc23)cc1OC	EC50	MT-4	-	-	cytopathic effect / MTT	>27 µM
CCCCN1C(=O)N(Cc2ccc3c(N)n[nH]c3c2)[C@H](Cc2ccccc2)[C@H](O)[C@@H](O)[C@H]1Cc1ccccc1	EC50	MT-2	-	RF	-	<1 µM
C=CCOCc1cn(C2CCON2C(=O)OCc2ccccc2)c(=O)[nH]c1=O	EC50	CEM-GFP	-	NL4-3	fluorescence	10.1 µM
C[C@H]1CO[C@@H]2CN3C=C(C(=O)NCc4nnc5n4CCCC5)C(=O)C(=O)C3C(=O)N12	EC50	CEM-SS	-	IIIB	XTT	0.0304 µM
CCOC(=O)CCC(NC(=O)c1ccc(OCc2nc3ccccc3n3cccc23)cc1)C(=O)OCC	EC50	MT-4	-	-	cytopathic effect / MTT	>100 µM
CCOC1(C(F)(F)F)OC(=O)Nc2ccc(Cl)cc21	EC90	-	RT-K103N	-	-	0.1392 µM
CC(C)C1=C2[C@H]3CC[C@@H]4[C@@]5(C)CC[C@H](OC(=O)[C@H]6C[C@@H](C(=O)O)C6(C)C)C(C)(C)[C@@H]5CC[C@@]4(C)[C@]3(C)CC[C@@]2([C@@H](O)CNC(=O)C2(NC(=O)c3ccc(Cl)cc3)CCCC2)CC1=O	EC50	MT-2	-	92HT599	p24 / ELISA	<1 µM
FC(F)(F)c1ccc2c(c1)nc(CCl)c1cccn12	EC50	MT-4	-	-	cytopathic effect / MTT	>100 µM
CC(C)[C@H](NC(=O)[C@H](C/C=C/c1ccccc1)C[C@H](O)[C@H](Cc1ccccc1)NC(=O)OC(C)(C)C)c1ncc[nH]1	EC50	MOLT-4	-	IIIB	-	0.33 µM
C[C@H]1CO[C@@H]2CN3C=C(C(=O)NCc4nc5ccc(F)cc5[nH]4)C(=O)C(=O)C3C(=O)N12	EC50	CEM-SS	-	IIIB	XTT	0.0948 µM
O=C1Nc2ccc(Cl)cc2C(OCC2CC2)(C(F)(F)F)O1	EC50	-	-	-	-	<0.0077 µM
O=C(O)c1ccc(Nc2nc3cc(C(F)(F)F)ccc3n3cccc23)cc1	EC50	MT-4	-	-	cytopathic effect / MTT	>15 µM
CC(C)C1=C2[C@H]3CC[C@@H]4[C@@]5(C)CC[C@H](OC(=O)[C@H]6C[C@@H](C(=O)O)C6(C)C)C(C)(C)[C@@H]5CC[C@@]4(C)[C@]3(C)CC[C@@]2(CCNCc2cccnc2)CC1=O	EC50	MT-2	-	92HT599	p24 / ELISA	<1 µM
COc1ccccc1C(C#N)c1nc(SC(C)C)[nH]c(=O)c1C	EC50	MT-4	-	IIIB	MTT	0.04 µM
CC(C)C1=C2[C@H]3CC[C@@H]4[C@@]5(C)CC[C@H](OC(=O)[C@H]6C[C@@H](C(=O)O)C6(C)C)C(C)(C)[C@@H]5CC[C@@]4(C)[C@]3(C)CC[C@@]2([C@@H](O)CNCC(F)(CCCN)NC(=O)c2ccc(Cl)cc2)CC1=O	EC50	MT-2	-	92HT599	p24 / ELISA	<1 µM
Fc1cc(F)c(Nc2nc(-c3cccnc3)nc3ccccc23)cc1Br	EC50	MT-4	-	NL4-3	ELISA	15 µM
COC(=O)[C@@H](NC(=O)[C@@H](NC(=O)CNC[C@H](O)[C@H](Cc1ccccc1)NC(=O)[C@H](C)NC(=O)OCc1ccccc1)C(C)C)C(C)C	EC50	MOLT-4	-	IIIB	virus yield	3 µM
O=c1[nH]c(-c2cccnc2)nc2ccc(O)cc12	EC50	MT-4	-	NL4-3	ELISA	17 µM
COc1ccc(Nc2nc3ccccc3n3cccc23)cc1OC	EC50	MT-4	-	-	cytopathic effect / MTT	>31 µM
Cc1cn([C@H]2C[C@H](N=[N+]=[N-])[C@@H](COP(=O)(OCCC#N)O[C@H]3CC[C@@]4(C)C(=CC[C@@H]5[C@@H]4CC[C@]4(C)C([C@H](C)CCCC(C)C)CC[C@@H]54)C3)O2)c(=O)[nH]c1=O	EC50	CEM	-	-	cytopathic effect / MTT	3.4 µM
Cc1cc(C)c2c(c1)N[C@H](c1cccc(N)c1)C[C@@H]2N1CCCC1=O	EC50	MT-2	-	NL4-3-Luc	luciferase	>149 µM
CC(C)[C@H](NC(=O)[C@H](C)C[C@H](O)[C@H](Cc1ccccc1)NC(=O)[C@H](C)NC(=O)OCc1ccccc1)C(=O)N[C@H](CO)C(C)C	EC50	MOLT-4	-	IIIB	-	0.88 µM
CC#CCOC1(C(F)(F)F)OC(=O)Nc2ccc(Cl)cc21	EC50	-	RT-K103N	-	-	<0.31 µM
Nc1nc2c(ncn2[C@H]2CO[C@@H](CCP(=O)(O)O)O2)c(=O)[nH]1	EC50	MT-4	-	-	cytopathic effect	6.8 µg/mL
C[C@@H]1CO[C@@]23CCC[C@@H]2N2C=C(C(=O)NCc4c(F)cc(F)nc4F)C(=O)C(=O)C2C(=O)N13	EC50	CEM-SS	-	IIIB	XTT	0.0667 µM
CC(C)[C@H](NC(=O)[C@H](Cc1ccccc1)C[C@H](O)[C@H](Cc1ccccc1)NC(=O)OC(C)(C)C)C(=O)N/C(N)=N/C(=O)OCc1ccccc1	EC50	MOLT-4	-	IIIB	-	0.03 µM
O=C1Nc2ccc(F)cc2C(C#Cc2cccs2)(C(F)(F)F)O1	EC50	-	RT-K103N	-	-	<0.369 µM
CC(C)C1=C2[C@H]3CC[C@@H]4[C@@]5(C)CC[C@H](OC(=O)[C@H]6C[C@@H](C(=O)O)C6(C)C)C(C)(C)[C@@H]5CC[C@@]4(C)[C@]3(C)CC[C@@]2(CC(=O)NCC(C)(C)NC(=O)c2cccnc2)CC1=O	EC50	MT-2	-	92HT599	p24 / ELISA	<1 µM
Cc1cc(C)c2ccc(-c3cccc([N+](=O)[O-])c3)nc2c1	EC50	MT-2	-	NL4-3-Luc	luciferase	110 µM
O=C(NCc1c(F)cncc1F)C1=CN2C[C@H]3O[C@@H]4CC[C@@H](C4)N3C(=O)C2C(=O)C1=O	EC50	CEM-SS	-	IIIB	XTT	0.0637 µM